In paper PMC8883573, “New Insights Into the Function of Flavohemoglobin in Mycobacterium tuberculosis: Role as a NADPH-Dependent Disulfide Reductase and D-Lactate-Dependent Mycothione Reductase” (Frontiers in Cellular and Infection Microbiology, 2022):

System: O=C(O)c1cc(SSc2ccc([N+](=O)[O-])c(C(=O)O)c2)ccc1[N+](=O)[O-]
Experiment: purified protein
Settings: pH 7.0

MtbFHb (Mycobacterium tuberculosis H37Rv)
Km: 98.5 ± 6.8 µM
